Pooled drug test results. Numbers come from NIAID ChemDB, via PubChem.

Common to all: growth or infection tests; agent: Herpes simplex virus 1; cell line: E6SM; read-out: EC50

ECn: concentration that inhibits the pathogen or its effect by n%. Conditions beyond the fields shown may differ between rows.

{"compound": "OC[C@H]1CC(n2cnc3c(NC4CC4)ncnc32)C[C@@H]1CO", "strain": "KOS", "result": ">100 µg/mL"}
{"compound": "OC[C@H]1O[C@@H](c2cc(Cl)c(F)cc2F)C[C@@H]1O", "strain": "F", "method": "cytopathic effect", "result": ">400 µg/mL"}
{"compound": "CC(=O)OCCOCN1C(=O)C=CN(COCCO)S1(=O)=O", "strain": "VMW1837 (TK-)", "result": ">400 µg/mL"}
{"compound": "OC[C@H]1O[C@@H](c2cc(I)c(F)cc2F)C[C@@H]1O", "strain": "VMW 1837", "method": "cytopathic effect", "result": ">400 µg/mL"}
{"compound": "O=C1C=CN(COCCO)S(=O)(=O)N1COCCO", "strain": "VMW1837 (TK-)", "result": ">400 µg/mL"}
{"compound": "Cc1cc([C@H]2C[C@H](O)[C@@H](CO)O2)c(Cl)cc1F", "strain": "KOS", "method": "cytopathic effect", "result": ">400 µg/mL"}
{"compound": "OC[C@H]1O[C@@H](c2cc(C(O)CI)c(F)cc2F)C[C@@H]1O", "strain": "KOS", "method": "cytopathic effect", "result": ">16 µg/mL"}
{"compound": "Nc1nc(N)c2ncn([C@H]3CO[C@H](CO)[C@@H](O)C3)c2n1", "strain": "TK-/B2006", "method": "cytopathic effect", "result": ">20 µg/mL"}
{"compound": "C=C(N=CC)c1nc(-c2cccc(OC)c2)n(C2O[C@H](CO)[C@@H](O)[C@H](O)[C@H]2O)n1", "strain": "KOS", "method": "cytopathic effect", "result": "300 µg/mL"}
{"compound": "O=c1ccn([C@@H]2C[C@H](CO)C[C@H]2CO)c(=O)[nH]1", "strain": "KOS", "result": ">100 µg/mL"}
{"compound": "CC=NC(=N)c1nc(-c2cccc(OC)c2)n(Cc2ccccc2)n1", "strain": "VMW 1837", "method": "cytopathic effect", "result": ">10 µg/mL"}
{"compound": "Cc1ccn2c(C3SCCS3)cnc2c1", "strain": "KOS", "result": ">1000 µM"}
{"compound": "CC(=O)OCCOCN1C(N)=CC(N)=NS1(=O)=O", "strain": "F", "result": ">400 µg/mL"}
{"compound": "CO[C@H](CO)[C@@H](O)CCn1cc(C)c(=O)[nH]c1=O", "strain": "KOS", "method": "cytopathic effect", "result": ">400 µg/mL"}
{"compound": "Nc1nc2c(ncn2[C@H]2C=C[C@@H](CO)[C@H](O)C2)c(=O)[nH]1", "strain": "McIntyre", "method": "cytopathic effect", "result": "0.004 µg/mL"}
{"compound": "O=c1ccn(C2CC(O[N+](=O)[O-])C(CO)O2)c(=O)[nH]1", "strain": "KOS ACV-R (TK-)", "method": "cytopathic effect", "result": ">400 µg/mL"}
{"compound": "CO[C@H](CO)[C@@H](O)CCn1cnc2c(N)ncnc21", "strain": "B2006 (TK-)", "method": "cytopathic effect", "result": ">400 µg/mL"}
{"compound": "Nc1ccn([C@H]2CO[C@H](CO)[C@@H](O)C2)c(=O)n1", "strain": "TK-/B2006", "method": "cytopathic effect", "result": "10 µg/mL"}
{"compound": "O=C(C1CC1)N(O)c1ccc(Cl)cc1", "strain": "KOS ACV-resistant TK-", "method": "cytopathic effect", "result": ">80 µg/mL"}
{"compound": "CC=NC(=N)c1nc(-c2ccc(C)cc2)n(Cc2ccccc2)n1", "strain": "KOS", "method": "cytopathic effect", "result": ">4 µg/mL"}
{"compound": "O=c1[nH]c(=O)n([C@@H]2C[C@H](CO)C[C@H]2CO)cc1I", "strain": "KOS (TK-)", "result": ">100 µg/mL"}
{"compound": "Nc1ccn(CC[C@H](O)CCO)c(=O)n1", "strain": "VMW1837 (TK-)", "method": "cytopathic effect", "result": ">400 µg/mL"}
{"compound": "Nc1nc2c(ncn2[C@@H]2C=C[C@H](CO)[C@@H](O)C2)c(=O)[nH]1", "strain": "VMW1837 (TK-/TK+)", "method": "cytopathic effect", "result": "0.01 µg/mL"}
{"compound": "OC[C@H]1O[C@@H](c2ccc(F)cc2F)C[C@@H]1O", "strain": "McIntyre", "method": "cytopathic effect", "result": ">400 µg/mL"}
{"compound": "C/C(O)=C1\\C(=N)N(COCCO)S(=O)(=O)N=C1N", "strain": "KOS", "result": ">400 µg/mL"}
{"compound": "COc1cc(Cc2cnc(-n3c(C)nc4ccc(Br)cc4c3=O)nc2N)cc(OC)c1OC", "strain": "KOS ACV (TK-)", "method": "cytopathic effect", "result": ">80 µg/mL"}
{"compound": "C=C(N=CC)c1nc(-c2ccc(C)cc2)n(C2O[C@H](CO)[C@@H](O)[C@H](O)[C@H]2O)n1", "strain": "VMW 1837", "method": "cytopathic effect", "result": "150 µg/mL"}
{"compound": "OC[C@H]1O[C@H](c2ccc(F)cc2F)C[C@@H]1O", "strain": "McIntyre", "method": "cytopathic effect", "result": ">400 µg/mL"}
{"compound": "CC=NC(=N)c1nc(-c2cccc(OC)c2)n(C/C=C/c2ccccc2)n1", "strain": "VMW 1837", "method": "cytopathic effect", "result": ">10 µg/mL"}
{"compound": "CC(=O)OCCOCN1C=CC(=O)N(COCCOC(C)=O)S1(=O)=O", "strain": "VMW1837 (TK-)", "result": ">400 µg/mL"}
{"compound": "Nc1nc2c(ncn2[C@H]2CO[C@@H](CO)C2)c(=O)[nH]1", "strain": "VMW1837 (TK-)", "method": "cytopathic effect", "result": "150 µg/mL"}
{"compound": "CC1(CO)CCC(Cn2nnc3c(=O)[nH]c(N)nc32)C1(C)C", "strain": "KOS", "method": "cytopathic effect", "result": ">200 µg/mL"}
{"compound": "CCOC(=O)C1=CN(COCCO)S(=O)(=O)NC1=O", "strain": "McIntyre", "result": ">400 µg/mL"}
{"compound": "C=C(N=CC)c1nc(-c2ccc(OC)cc2)n([C@@H]2O[C@H](CO)[C@@H](O)[C@H]2O)n1", "strain": "VMW 1837", "method": "cytopathic effect", "result": ">400 µg/mL"}
{"compound": "CC1(CO)CCC(Cn2cnc3c(Cl)nc(N)nc32)C1(C)C", "strain": "TK-/B2006", "method": "cytopathic effect", "result": ">200 µg/mL"}
{"compound": "CO[C@H](CO)[C@@H](O)CCn1ccc(N)nc1=O", "strain": "F", "method": "cytopathic effect", "result": ">400 µg/mL"}
{"compound": "Nc1nc(Cl)c2ncn([C@H]3CO[C@@H](CO)C3)c2n1", "strain": "B2006 (TK-)", "method": "cytopathic effect", "result": "200 µg/mL"}
{"compound": "O=C(CCC1CCCCC1)N(O)c1ccc(Cl)cc1", "strain": "KOS ACV-resistant TK-", "method": "cytopathic effect", "result": ">16 µg/mL"}
{"compound": "CC=NC(=N)c1nc(-c2cccc(C)c2)n(Cc2ccccc2)n1", "strain": "KOS", "method": "cytopathic effect", "result": ">4 µg/mL"}
{"compound": "Cc1cccn2c(C3OCCO3)cnc12", "strain": "KOS", "result": ">1000 µM"}
{"compound": "CC1=CC(=O)N(c2ccccc2)S(=O)(=O)N1COCCO", "strain": "KOS", "result": ">400 µg/mL"}
{"compound": "Cc1ccn2c(C3OCCS3)cnc2c1", "strain": "B2006 (TK-)", "result": ">1000 µM"}
{"compound": "Nc1cc([C@H]2C[C@H](O)[C@@H](CO)O2)c(F)cc1F", "strain": "F", "method": "cytopathic effect", "result": ">400 µg/mL"}
{"compound": "COc1cc(Cc2cnc(-n3c(-c4ccccc4)nc4ccc(Br)cc4c3=O)nc2N)cc(OC)c1OC", "strain": "KOS", "method": "cytopathic effect", "result": "48 µg/mL"}
{"compound": "CC1(CO)CCC(Cn2cnc3c(=O)[nH]c(N)nc32)C1(C)C", "strain": "KOS", "method": "cytopathic effect", "result": ">400 µg/mL"}
{"compound": "Cc1cn(C2CC(O[N+](=O)[O-])C(CO)O2)c(=O)[nH]c1=O", "strain": "KOS", "method": "cytopathic effect", "result": ">400 µg/mL"}
{"compound": "Cc1cn([C@H]2CO[C@H](CO)[C@@H](O)C2)c(=O)[nH]c1=O", "strain": "TK-/B2006", "method": "cytopathic effect", "result": ">20 µg/mL"}
{"compound": "Nc1ncnc2c1ncn2[C@@H]1C=C(CO)[C@@H](O)[C@H]1O", "strain": "B2006 (TK-)", "method": "cytopathic effect", "result": "20 µg/mL"}
{"compound": "OC[C@H]1O[C@@H](c2cc(C(O)CBr)c(F)cc2F)C[C@@H]1O", "strain": "KOS", "method": "cytopathic effect", "result": ">3.2 µg/mL"}
{"compound": "C=C(N=CC)c1nc(-c2ccccc2)n(C2O[C@H](CO)[C@@H](O)[C@H](O)[C@H]2O)n1", "strain": "KOS", "method": "cytopathic effect", "result": "150 µg/mL"}
{"compound": "Cc1ccn2c(C(SCCc3ccccc3)SCCc3ccccc3)cnc2c1", "strain": "B2006 (TK-)", "result": ">1000 µM"}
{"compound": "Cc1cc([C@@H]2C[C@H](O)[C@@H](CO)O2)c(F)cc1Cl", "strain": "F", "method": "cytopathic effect", "result": ">400 µg/mL"}
{"compound": "Cc1nc2ccc(Br)cc2c(=O)n1-c1nnc(-c2cccc(Cl)c2Cl)c(N)n1", "strain": "KOS ACV (TK-)", "method": "cytopathic effect", "result": ">3.2 µg/mL"}